{"source": "patent US8420311B2", "about": "“Method to block the infection by flaviviruses, molecules and uses” (Centro de Ingenieria Genetica y Biotecnologia, priority 2006, dated 2013)", "molecules": {"B1": {"name": "activated A2M: purified human A2M activated by incubation with methylamine (protein)", "chain": "SVSGKPQYMVLVPSLLHTETTEKGCVLLSYLNETVTVSASLESVRGNRSLFTDLEAENDVLHCVAFAVPKSSSNEEVMFLTVQVKGPTQEFKKRTTVMVKNEDSLVFVQTDKSIYKPGQTVKFRVVSMDENFHPLNELIPLVYIQDPKGNRIAQWQSFQLEGGLKQFSFPLSSEPFQGSYKVVVQKKSGGRTEHPFTVEEFVLPKFEVQVTVPKIITILEEEMNVSVCGLYTYGKPVPGHVTVSICRKYSDASDCHGEDSQAFCEKFSGQLNSHGCFYQQVKTKVFQLKRKEYEMKLHTEAQIQEEGTVVELTGRQSSEITRTITKLSFVKVDSHFRQGIPFFGQVRLVDGKGVPIPNKVIFIRGNEANYYSNATTDEHGLVQFSINTTNVMGTSLTVRVNYKDRSPCYGYQWVSEEHEEAHHTAYLVFSPSKSFVHLEPMSHELPCGHTQTVQAHYILNGGTLLGLKKLSFYYLIMAKGGIVRTGTHGLLVKQEDMKGHFSISIPVKSDIAPVARLLIYAVLPTGDVIGDSAKYDVENCLANKVDLSFSPSQSLPASHAHLRVTAAPQSVCALRAVDQSVLLMKPDAELSASSVYNLLPEKDLTGFPGPLNDQDDEDCINRHNVYINGITYTPVSSTNEKDMYSFLEDMGLKAFTNSKIRKPKMCPQLQQYEMHGPEGLRVGFYESDVMGRGHARLVHVEEPHTETVRKYFPETWIWDLVVVNSAGVAEVGVTVPDTITEWKAGAFCLSEDAGLGISSTASLRAFQPFFVELTMPYSVIRGEAFTLKATVLNYLPKCIRVSVQLEASPAFLAVPVEKEQAPHCICANGRQTVSWAVTPKSLGNVNFTVSAEALESQELCGTEVPSVPEHGRKDTVIKPLLVEPEGLEKETTFNSLLCPSGGEVSEELSLKLPPNVVEESARASVSVLGDILGSAMQNTQNLLQMPYGCGEQNMVLFAPNIYVLDYLNETQQLTPEVKSKAIGYLNTGYQRQLNYKHYDGSYSTFGERYGRNQGNTWLTAFVLKTFAQARAYIFIDEAHITQALIWLSQRQKDNGCFRSSGSLLNNAIKGGVEDEVTLSAYITIALLEIPLTVTHPVVRNALFCLESAWKTAQEGDHGSHVYTKALLAYAFALAGNQDKRKEVLKSLNEEAVKKDNSVHWERPQKPKAPVGHFYEPQAPSAEVEMTSYVLLAYLTAQPAPTSEDLTSATNIVKWITKQQNAQGGFSSTQDTVVALHALSKYGAATFTRTGKAAQVTIQSSGTFSSKFQVDNNNRLLLQQVSLPELPGEYSMKVTGEGCVYLQTSLKYNILPEKEEFPFALGVQTLPQTCDEPKAHTSFQISLSVSYTGSRSASNMAIVDVKMVSGFIPLKPTVKMLERSNHVSRTEVSSNHVLIYLDKVSNQTLSLFFTVLQDVPVRDLKPAIVKVYDYYETDEFAIAEYNAPCSKDLGNA"}}, "tested_on": "DV", "test": "Inhibition of the infection of Vero cells with DV by pre-incubation of the virus with A2M", "assay_type": "cell-based, dengue virus", "details": "increasing concentrations, 1 h at 25° C. (FIG. 20A)", "protocol": "FIG. 20. Inhibition of the infection of Vero cells with DV by pre-incubation with A2M. Viral preparations were incubated 1 h at 25° C. (A and C) or the indicated time (B) with the proteins i. e. activated A2M (A2Mact), non-activated A2M (A2M no act) and a non-related protein (NR). The mixtures of the proteins with the virus were added to monolayers of Vero cells and incubated for 1 h at 37° C. The cell monolayers were washed to eliminate non-bound virus. Next, medium MEM supplemented with non-essential amino acids and 1% FBS, 1% CMC was added and the cells were incubated for 5 days at 37° C. in a CO2 incubator. To visualize the viral plaques, Vero cells were stained using Naphtol Blue Black. All experimental points were performed on duplicates.\nTo obtain further evidences of the interaction of DV with A2M, the two variants of the protein i.e. activated and non-activated were used in assays of inhibition of infection of Vero cells. The viral preparation was incubated with solutions of activated A2M of higher concentrations than the physiological concentrations reached by this variant of the protein. Solutions of equimolar concentration of non-activated A2M and a non-related protein were used as negative controls. […]"}
{"molecule": "B1", "values": [{"measurement": "effect of pre-incubation of the virus on viral infection", "value": "blocks viral infection in a dose-dependent manner"}]}
